Source: paper PMC11841048 (ACS Infectious Diseases, 2025)
Where two headings read alike, the source gives them in different places.

Tests used:
BaIMPDH (wild-type) = BaIMPDH (wild-type) (Bacillus anthracis, UniProt A0A6L8P2U9); conditions: read-out: Ki,app
BaIMPDH L413A [1] = target: BaIMPDH L413A (Bacillus anthracis, UniProt A0A6L8P2U9, L413A)
BaIMPDH L413V = BaIMPDH L413V (Bacillus anthracis, UniProt A0A6L8P2U9, L413V)
BaIMPDH L413A [2] = conditions: L413A versus wild-type BaIMPDH

SMILES	Ki (BaIMPDH (wild-type))	other results
CC(=O)c1cccc(C(C)(C)NC(=O)Nc2ccc(Cl)cc2)c1	0.053 µM	–
NC(=O)c1ccc[n+]([C@@H]2O[C@H](COP(=O)(O)OP(=O)(O)OC[C@H]3O[C@@H](n4cnc5c(N)ncnc54)[C@H](O)[C@@H]3O)[C@@H](O)[C@H]2O)c1	–	k7 (NAD^+ association with E-XMP*) (BaIMPDH L413A [1]; geometric mean): 0.000917 μM^–1 s^–1; k–2 (NAD^+ dissociation from E·IMP·NAD^+) (BaIMPDH L413A [1]; geometric mean): 6.9 s^–1; k–7 (NAD^+ dissociation from E-XMP*·NAD^+) (BaIMPDH L413A [1]; geometric mean): 4.12 s^–1; k2 (NAD^+ association with E·IMP) (BaIMPDH L413A [1]; geometric mean of 18 best-fit values): 0.00852 μM^–1 s^–1; Kd (BaIMPDH L413A [1]; read-out: k–2/k2, NAD^+ and E·IMP): 810 µM; Kd (BaIMPDH L413A [1]; read-out: k–7/k7, NAD^+ and E-XMP*): 4500 µM; apparent Michaelis constant for NAD+, KmB (BaIMPDH L413V; L413V, [IMP] 1000 µM, brackets 95% confidence interval): 3650 [ 2460 , 6100 ] µM; Km (BaIMPDH L413V; read-out: Km(NAD^+), L413 V): 3.3 mM
O=C(Cn1c(-c2ccccn2)nc2ccccc21)Nc1ccc2cc(Cl)c(Cl)cc2c1	0.102 µM	change of affinity (Ki,app) in L413A (BaIMPDH L413A [2]): 10 fold
CC(=O)c1cccc(CNC(=O)Nc2ccc(Cl)cc2)c1	2.01 µM	–
CC(Oc1cccc2ccccc12)C(=O)Nc1ccc(Br)cc1 (stereo not drawn)	0.145 µM	–
C[C@@H](Oc1cccc2c1ccc[n+]2[O-])c1cn(-c2ccc(Cl)cc2)nn1	0.069 µM	–
C=C(C)c1cccc(C(C)(C)NC(=O)Nc2ccc(Cl)c(C(=O)O)c2)c1	0.018 µM	–
C=C(C)c1cccc(C(C)(C)NC(=O)Nc2ccc(Cl)cc2)c1	0.0068 µM	–
NC(=O)C1=CN([C@@H]2O[C@H](COP(=O)(O)OP(=O)(O)OC[C@H]3O[C@@H](n4cnc5c(N)ncnc54)[C@H](O)[C@@H]3O)[C@@H](O)[C@H]2O)C=CC1 [NADH]	–	k4 (NADH release) (BaIMPDH L413A [1]; lower limit (ΔSSQ = 5%)): >255 s^–1; k–4 (NADH association) (BaIMPDH L413A [1]; lower limit (ΔSSQ = 5%)): >0.67 μM^–1 s^–1; Kd (BaIMPDH L413A [1]; read-out: k4/k–4, NADH and E-XMP*): 370 µM
C=C(C)c1cccc(C(C)NC(=O)Nc2ccc(Cl)cc2)c1 (stereo not drawn)	0.173 µM	–
CC(C(=O)Nc1ccc(Cl)cc1)n1c(-c2nccs2)nc2ccccc21 (stereo not drawn)	0.062 µM	–
O=C(Cn1c(-c2nccs2)nc2ccccc21)Nc1ccc2c(c1)OCCO2	0.707 µM	–
CC(=O)c1cccc(C(C)(C)NC(=O)Nc2ccc(Cl)c(C#N)c2)c1	0.067 µM	–
CC(C)C(Oc1cccc2ccccc12)C(=O)Nc1ccc(Br)cc1 (stereo not drawn)	0.076 µM	–
O=C(Cn1c(-c2nccs2)nc2ccccc21)Nc1ccc(Cl)cc1	0.107 µM	–
C=C(C)c1cccc(C(C)(C)NC(=O)Nc2cccc(Cl)c2)c1	0.283 µM	–
CC(=O)c1cccc(C(C)NC(=O)Nc2ccc(Cl)cc2)c1 (stereo not drawn)	0.07 µM	–
